Anti-infective test results gathered from many reports (values: NIAID ChemDB through PubChem).

MIC bound comes from a single tested concentration. Inhibition is in % at the dose shown (toxicity tests: loss of growth or viability). ICn: concentration for n% inhibition. Rows are shuffled and stem from different studies.

{"compound": "COc1ccc2cc(-c3cncc(N4CCN(c5ccc(C(C)=O)cc5)CC4)n3)ccc2c1", "organism": "Cytomegalovirus", "read-out": "IC50", "kind": "target", "target": "UL97 kinase", "result": "<10 µM"}
{"compound": "O=c1[nH]c2cnn(-c3ccccc3)c2c(=O)n1O", "organism": "Mycobacterium tuberculosis", "method": "resazurin", "read-out": "MIC bound", "kind": "culture", "strain or isolate": "H37Rv", "result": ">6.25 µg/mL"}
{"compound": "Nc1c(N=Nc2ccc(Cc3ccc(O)cc3)cc2)cc(S(=O)(=O)[O-])c2ccccc12.[Na+]", "organism": "Mycobacterium tuberculosis", "read-out": "MIC", "kind": "culture", "strain or isolate": "H37Rv", "result": ">100 µg/mL"}
{"compound": "Nc1cc2nc3ccccc3c(=O)n2[nH]1", "organism": "Mycobacterium tuberculosis", "method": "resazurin", "read-out": "MIC bound", "kind": "culture", "strain or isolate": "H37Rv", "result": ">6.25 µg/mL"}
{"compound": "[Na+].[O-]c1ccccc1I", "organism": "Mycobacterium tuberculosis", "read-out": "MIC", "kind": "culture", "strain or isolate": "H37Rv", "result": "25 µg/mL"}
{"compound": "O=C1[C@@H]2C(c3ccccc3)=NN(C(=O)c3ccccc3)[C@@H]2C(=O)N1c1ccccc1", "organism": "Mycobacterium tuberculosis", "method": "BACTEC", "read-out": "MIC bound", "kind": "culture", "strain or isolate": "H37Rv", "result": ">12.8 µg/mL"}
{"compound": "Fc1ccc(N2CCCCC2)c(NC(=S)c2ccncc2)c1", "method": "kinase activity", "read-out": "inhibition", "kind": "host protein", "dose": "10 µM", "target": "CK2alpha2", "result": "-11%"}
{"compound": "CCc1ccc(NCc2cc(OC)c(OC)c(OC)c2)cc1", "organism": "Mycobacterium tuberculosis", "method": "BACTEC", "read-out": "inhibition", "kind": "culture", "dose": "12.8 µg/mL", "strain or isolate": "H37Rv", "result": "3%"}
{"compound": "Fc1ccc(N2CCN(c3cncc(-c4csc5ccccc45)n3)CC2)cc1", "organism": "Cytomegalovirus", "read-out": "inhibition", "kind": "target", "dose": "1 µM", "target": "UL97 kinase", "result": "<50%"}
{"compound": "CCOC(=O)C1=C(C)OC(C)(/N=C(\\C#N)C(=O)OC)C1c1ccccc1", "organism": "Mycobacterium tuberculosis", "method": "BACTEC", "read-out": "inhibition", "kind": "culture", "dose": "12.5 µg/mL", "strain or isolate": "H37Rv", "result": "12%"}
{"compound": "COc1cccc(-c2cncc(N3CCN(c4ccc(OC)c(OC)c4)CC3)n2)c1", "organism": "Cytomegalovirus", "read-out": "inhibition", "kind": "target", "dose": "1 µM", "target": "UL97 kinase", "result": "<50%"}
{"compound": "NC(=O)Cc1ccc(O)cc1", "organism": "Mycobacterium tuberculosis", "read-out": "MIC", "kind": "culture", "strain or isolate": "H37Rv", "result": ">100 µg/mL"}
{"compound": "Fc1ccc(-c2cncc(N3CCN(c4cccc(Cl)c4)CC3)n2)cc1", "organism": "Cytomegalovirus", "read-out": "IC50", "kind": "target", "target": "UL97 kinase", "result": "<10 µM"}
{"compound": "Clc1ccc(OCCN(CCOc2ccc(Cl)cc2)C2CCCCC2)cc1", "organism": "Mycobacterium tuberculosis", "read-out": "MIC", "kind": "culture", "strain or isolate": "H37Rv", "result": "12.5 µg/mL"}
{"compound": "Fc1ccc(-c2cncc(N3CCN(c4ccccn4)CC3)n2)c(F)c1", "organism": "Cytomegalovirus", "read-out": "IC50", "kind": "target", "target": "UL97 kinase", "result": "<100 µM"}
{"compound": "Nc1nc(N)nc(Nc2cccc(C(=O)O)c2)n1", "organism": "Mycobacterium tuberculosis", "read-out": "MIC", "kind": "culture", "strain or isolate": "H37Rv", "result": ">100 µg/mL"}
{"compound": "CN1CCN(c2n[nH]c(=O)c3c2nnn3C2CCCCC2)CC1", "organism": "Mycobacterium tuberculosis", "method": "resazurin", "read-out": "inhibition", "kind": "culture", "dose": "6.25 µg/mL", "strain or isolate": "H37Rv", "result": "25%"}
{"compound": "CC(C)(C)c1ccc(OCC2CO2)cc1", "organism": "Mycobacterium tuberculosis", "read-out": "MIC", "kind": "culture", "strain or isolate": "H37Rv", "result": "100 µg/mL"}
{"compound": "COc1cc(Nc2cncc(-c3cccc(F)c3)n2)cc(OC)c1OC", "organism": "Cytomegalovirus", "read-out": "inhibition", "kind": "target", "dose": "1 µM", "target": "UL97 kinase", "result": "<50%"}
{"compound": "Cc1cc2c(cc1Cl)Sc1nccn1S2(=O)=O", "organism": "Mycobacterium tuberculosis", "method": "resazurin", "read-out": "MIC bound", "kind": "culture", "strain or isolate": "H37Rv", "result": ">6.25 µg/mL"}
{"compound": "O=C(O)C1CSC(c2ccc(O)cc2)N1", "organism": "Mycobacterium tuberculosis", "read-out": "MIC", "kind": "culture", "strain or isolate": "H37Rv", "result": "50 µg/mL"}